The experiment has as its target T1, CD81 MBP-LEL containing the F186S mutation, human, P60033 113-201.
T1 sequence: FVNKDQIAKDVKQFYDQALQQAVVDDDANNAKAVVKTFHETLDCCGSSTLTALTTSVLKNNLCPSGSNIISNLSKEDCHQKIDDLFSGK
The experiment can be described thus: MBP-LEL ELISA, H53 detection. (In general: In an ELISA, binding on a coated surface is turned into a signal by an enzyme label.)

Turning to E2Δ1-his mature protein, the result is listed as “no binding”.

Source of the values: patent US20110014209.
